PubChem BioAssay AID624099 | ICCB-Longwood, 2012

Test: 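Human genes that papillomavirus E2 requires to repress the HPV18 LCR promoter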 (primary screen)
System: human C33A cervical carcinoma cells (HPV-negative) stably expressing BPV1 E2 and an HPV18 LCR luciferase reporter
Reagent: siRNA pool against human genes, 40 nM
Time to read-out: 72 h
Measured: 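HPV18 LCR reporter light per well, converted to plate-wise z-scores that exclude control wells, and averaged over triplicate plates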
Scale: mean z-score and z-score: higher = stronger reporter signal, weaker E2 silencing
Active means: 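Hit if mean z-score reaches 2 and two or more of three replicate z-scores also reach 2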
The deposit covers about 21,000 reagents; this is a random part of them. 497 of them (2.4%) count as active. 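Higher z means weaker E2 silencing; only reporter increases were scored, and knock-downs that hurt cell survival may mask genuine repressor factors.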 A number with no mark means an inactive call. No sequences are given here.

| target gene | mean z-score | z-score, replicate A | z-score, replicate B | z-score, replicate C |
| --- | --- | --- | --- | --- |
| OPRM1 | 0.39 | 0.57 | 0.13 | 0.48 |
| FOXF2 | 0.4 | 0.46 | 0.01 | 0.73 |
| LRP2BP | -0.8 | -1.08 | -0.99 | -0.33 |
| SHISA4 | -2.05 | -2.2 | -1.66 | -2.3 |
| PIP | -1.02 | -0.62 | -1.02 | -1.44 |
| OR10H2 | -0.51 | -0.33 | -0.91 | -0.29 |
| INHBE | 0.44 | 0.36 | 0.82 | 0.15 |
| S100A13 | 0.17 | 0.43 | 0.53 | -0.44 |
| NACA | -1.12 | -1.19 | -1.05 | -1.14 |
| LOC389264 (retired record) | -2.06 | -1.59 | -2.33 | -2.27 |
| IFT52 | -0.18 | -0.29 | -0.38 | 0.13 |
| CENPA | -0.52 | -0.6 | -0.55 | -0.41 |
| CAPZA1 | -0.2 | -0.44 | -0.19 | 0.01 |
| TCEA1P3 | -0.57 | -0.73 | -0.68 | -0.31 |
| TAGLN2 | 1.17 | 1.28 | 1.16 | 1.07 |
| DLK1 | 0.7 | 0.12 | 0.96 | 1.01 |
| FREM3 | 0.35 | 0.07 | 0.29 | 0.69 |
| HDAC11 | -0.7 | -0.68 | -0.67 | -0.75 |
| ZKSCAN8 | 0.51 | 0.28 | 0.72 | 0.53 |
| KIF11 | -0.99 | -1.2 | -1.02 | -0.75 |
| ABCC9 | -0.39 | -0.32 | -0.54 | -0.32 |
| SOS2 | 0.85 | 0.93 | 0.51 | 1.1 |
| LINC00954 | -1.52 | -1.54 | -1.3 | -1.71 |
| YPEL2 | 1.49 | 1.76 | 1.16 | 1.56 |
| SCTR | -0.11 | -0.13 | -0.34 | 0.15 |
| DCLK2 | -0.39 | 0.23 | -0.57 | -0.84 |
| ADAM20 | -0.83 | -0.47 | -1.13 | -0.91 |
| MYPOP | -0.41 | -0.25 | -0.29 | -0.67 |
| CPXM1 | -1.01 | -1.05 | -0.93 | -1.04 |
| ZSCAN5A | 0.74 | 0.7 | 0.85 | 0.68 |
| MMP19 | 1.27 | 1.19 | 1.34 | 1.29 |
| ZC3H8 | 0.21 | 0.52 | 0.16 | -0.07 |
| LINC00620 | -1.87 | -2.02 | -2.04 | -1.55 |
| PRR23B | 0.22 | 0.25 | 0.27 | 0.16 |
| SH3PXD2B | 0.27 | 0.95 | 0.54 | -0.67 |
| RAB3B | 0.4 | 0.53 | 0.16 | 0.53 |

Just “z-score, replicate C”, for 6 of the entries above:
ZKSCAN8: 0.53
KIF11: -0.75
ABCC9: -0.32
SOS2: 1.1
LINC00954: -1.71
YPEL2: 1.56

Next results:
| target gene | mean z-score | z-score, replicate A | z-score, replicate B | z-score, replicate C |
| --- | --- | --- | --- | --- |
| KCNMB2 | 0.33 | 0.53 | 0.38 | 0.08 |
| ELOVL6 | -0.88 | -1.07 | -0.96 | -0.62 |
| CTNNB1 | 1.31 | 1.5 | 1.35 | 1.09 |
| KL | -0.14 | 0.04 | -0.02 | -0.44 |
| MAK | 0.7 | 0.85 | 0.36 | 0.89 |
| RCAN3 | 1.04 | 1.01 | 1.04 | 1.08 |
| NBPF2P | 0.6 | 0.59 | 0.54 | 0.66 |
| LOC390638 | -1.08 | -0.98 | -1.21 | -1.05 |
| AKR1C4 | -0.27 | -0.12 | 0.11 | -0.8 |
| BBS9 | -0.41 | -0.41 | -0.19 | -0.64 |
| LOC388635 (retired record) | 0.69 | 0.79 | 0.84 | 0.43 |
| LINC00636 | -0.55 | -0.69 | -0.78 | -0.16 |
| LOC107984784 | -0.26 | -0.04 | -0.37 | -0.39 |
| KRTAP19-2 | -0.4 | -0.42 | -0.43 | -0.36 |
| POFUT4 | 1.21 | 1.17 | 1.02 | 1.43 |
| GRIP1 | -0.88 | -1.08 | -0.71 | -0.83 |
| RNF169 | -2.19 | -2.3 | -2.15 | -2.1 |
| PRPSAP2 | -0.23 | -0.81 | -0.1 | 0.22 |
| SLITRK4 | -0.22 | -0.5 | -0.45 | 0.3 |
| ACE | -0.07 | 0.16 | -0.3 | -0.07 |
| OR10X1 | 0.42 | 0.84 | 0.14 | 0.29 |
| ZC3H12C | -0.11 | -0.33 | 0.03 | -0.03 |
| LOC388924 (retired record) | 0.18 | 0.87 | 0.15 | -0.49 |
| C19orf18 | -1.59 | -2.24 | -1.14 | -1.4 |
| SUN5 | 0.72 | 0.57 | 0.84 | 0.76 |
| RPS17P10 | -0.44 | -0.33 | -0.74 | -0.24 |
| CDH10 | 0.01 | -0.02 | 0.05 | -0.01 |
| SHKBP1 | -0.22 | -0.5 | -0.35 | 0.19 |
| PAXX | 0.2 | -0.13 | 0.07 | 0.65 |
| HLA-DRA | 0.94 | 0.94 | 0.91 | 0.96 |
| PXT1 | 1.49 | 1.46 | 1.52 | 1.13 |
| ALKBH1 | -0.46 | -0.52 | -0.38 | -0.49 |
| RPS6KA2 | -1.35 | -1.04 | -1.54 | -1.46 |
| BOD1 | -2.05 | -2.37 | -1.85 | -1.93 |
| FAM181A | 0.89 | 1.16 | 0.59 | 0.93 |
| LOC441081 | 0.05 | -0.08 | 0.27 | -0.03 |
| TNN | -0.2 | -0.69 | -0.07 | 0.17 |
